## Screening data, single-dose tests

Source: ChEMBL document CHEMBL3988442, “University of Dundee, Small-Polar-MMV Screening Library” (2021).

The filed quantity is “Percent Effect” (%). How 0% and 100% were set is not recorded. Most values in the screen are low, and negative values occur. Many other results are left out here, so strong results are more common than in the screen.

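Growth of Mycobacterium tuberculosis over 3 days (7H9 medium with glucose and tyloxapol); the read-out is not stated. Concentration: 500 µM. Direction is inferred from retests: higher values go with more growth inhibition. Of about 18,000 compounds tested this way, about 1,400 (7.9%) reached 50% or more in at least one test.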

SMILES,Percent Effect
CNCc1nnc2n1CCC2,-14.76%
O=S(=O)(c1cccc2ncccc12)N1CCCC1,49.67%
COc1ccc(CC(=O)NCCN(C)C)cc1OC,-2.975%
COc1ccc(CN(C)C(=O)C2CC2)cc1F,66.26%
CC[C@@H](O)CN1CCC(NC(=O)C2CCC2)CC1,5.56%
CN(Cc1ccc2c(c1)OCO2)S(=O)(=O)c1cccs1,32.9%
Cc1cnc(C(=O)N(C)Cc2cc(C)on2)cn1,-2.81%
COC(=O)[C@@H]1C[C@@H](O)CN1CC(=O)N1CCCCCC1,-3.892%
Cc1cc(=O)cc(C(=O)NCCC(C)n2ccnc2)o1 (stereo not given),-2.764%
N[C@@H]1CCN(Cc2ccc(C(F)(F)F)nc2)C[C@H]1O,9.67%
CC(SC1=NCCN1)C(=O)Nc1ccc(F)cc1 (stereo not given),33.69%
Fc1cccc2c1CNCCO2,0.9823%
NCCc1ccc(N2CCOCC2)c(F)c1,53.31%
CN(Cc1cccc(C#N)c1)Cc1ccnc(N)c1,17.11%
CCN(Cc1nc(-c2ccc(=O)[nH]c2)no1)C1CC1,15.09%
C[C@@H](CO)CCNc1cc(C2CC(N)C2)ncn1 (stereo not given in full),5.604%
CCCNC(=O)Nc1cccc(C(=O)N(C)C)c1,3.859%
CCNC(=O)CCc1ccccc1F,20.67%
COC(=O)C(C)(C)CNC(=O)c1cc(C#N)c[nH]1,1.933%
COc1ccc(CC2CCN2)cc1 (stereo not given),79.99%
Cc1cc(NC(=O)CS(=O)(=O)c2ccccc2)no1,13.86%
Cc1ccc(NC(=O)C(C)N2CCCN(C)CC2)cc1 (stereo not given),19.74%
CCC(C)c1cc(C(=O)NC(C)(CO)CO)on1 (stereo not given),-2.682%
CS(=O)(=O)N1CCC(N)C1 (stereo not given),-14.21%
CCN1CCN(CC(=O)Nc2cc(C)ccc2C)CC1,19.28%
CC(C)(C)OC(=O)Nc1ccc(C(N)=O)cc1,0.9895%
CCc1noc(Cn2ccc3ncccc3c2=O)n1,19.38%
Cc1cc(F)ccc1S(=O)(=O)N1C[C@H](C2CC2)[C@@H](N)C1,47.34%
CSc1ccc(C(CN)N(C)C)cc1 (stereo not given),82.12%
Cc1noc(CN2CCC(C(N)=O)CC2)n1,-3.443%
COc1ccc(C2CCCN2C(C)=O)cc1OC (stereo not given),8.376%
O=C(c1c(F)cc(F)cc1F)C1CCNCC1,22.65%
NCCCNS(=O)(=O)c1ccc(Br)c(F)c1,57.06%
CCCN(CCC)S(=O)(=O)N1CCC2(CC1)OCCO2,58.93%
CC(C)CNc1nc(N)c2cn[nH]c2n1,74.7%
CC(=O)N1CCC(OCCOc2ccccc2)CC1,46.24%
O=C(C1CCOCC1)N1CCC(Oc2ccccc2)C1 (stereo not given),22.62%
O=C(NCC1CCN(C2CC2)C1)c1ccccc1F (stereo not given),64.71%
NC1CCN(C2COC2)CC1,-7.696%
NC1CCN(c2cccs2)CC1,39.01%
COc1ccccc1NC(=O)c1ccc(C)nc1,51.59%
Cc1cccc(Cn2c(CN)n[nH]c2=O)c1,23.76%
COc1ccc(S(=O)(=O)Nc2cc(C)ccn2)cc1,-3.636%
COC(=O)NC(C)C(=O)NCCNc1ncccc1C (stereo not given),10.66%
COCc1cc(CNC(=O)c2sc(N)nc2C)n[nH]1,0.5694%
CC(C)C(C)(C#N)NC(=O)CN1CCCCC1 (stereo not given),3.343%
CCn1nc(-c2ccc(F)cc2)oc1=O,-8.999%
COc1cccc2c1C(N)CO2 (stereo not given),7.085%

Repeated from the top, 4 entries:

SMILES	Percent Effect
CNCc1nnc2n1CCC2	-14.76%
O=S(=O)(c1cccc2ncccc12)N1CCCC1	49.67%
COc1ccc(CC(=O)NCCN(C)C)cc1OC	-2.975%
COc1ccc(CN(C)C(=O)C2CC2)cc1F	66.26%